# Tested on: gene expression in intestines, liver, and skin
# Test: RNA sequencing, differential gene expression after PTX 251D feeding
# Type: in vivo, Dendrobates tinctorius
# Conditions: DHQ+PTX vs DHQ
# Source text: Lab-reared (non-toxic) Dendrobates tinctorius were housed in terraria with live plants, a water pool, and a shelter. Ten adult females were size-matched, randomly assigned to control or experimental groups (N = 5 per group), and then housed individually. To measure the specific effects of PTX 251D compared to a background toxicity, the control group was fed 0.01% DHQ (Sigma-Aldrich, St. Louis, USA) in a solution of 1% EtOH and the experimental group was fed a solution of 0.01% DHQ and 0.01% PTX 251D (PepTech, Burlington, MA, USA) in a solution of 1% EtOH in water. Each frog was fed 15 μL each day for five days by pipetting the solution directly into the mouth between 10am-12pm. On the afternoon of the fifth day, frogs were euthanized by cervical transection and the dorsal skin, liver, intestines, and oocytes were dissected into Trizol (Thermo Fisher Scientific, Waltham, USA).
# RNA extraction followed the Trizol (Thermo Fisher Scientific, Waltham, MA, USA) protocol outlined in Caty et al. 2019 [16] and according to the manufacturer’s instructions. After the first spin, the organic layer was saved for alkaloid extraction (see below). Poly-adenylated RNA was isolated using the NEXTflex PolyA Bead kit (Bioo Scientific, Austin, USA) following manufacturer’s instructions. RNA quality and lack of ribosomal RNA was confirmed using an Agilent 2100 Bioanalyzer (Agilent Technologies, Santa Clara, USA). Each RNA sequencing library was prepared using the NEXTflex Rapid RNAseq kit (Bioo Scientific). Libraries were quantified with quantitative PCR (NEBnext Library quantification kit, New England Biolabs, Ipswich, USA) and a Agilent Bioanalyzer High Sensitivity DNA chip, both according to manufacturer’s instructions. All libraries were pooled at equimolar amounts and were sequenced on four lanes of an Illumina HiSeq 4000 machine to obtain 150 bp paired-end reads.
# We created a reference transcriptome using Trinity and filtered the raw assembly by removing contigs with BLAST hits belonging to microorganisms and invertebrates in the Swiss-Prot database, as these represent likely parasites, prey items, or other contaminants. Overlapping contigs were clustered using cd-hit-est and contigs that were less than 250bp long were removed from the assembly. We mapped the paired quality-trimmed Illumina reads to the reference transcriptome using kallisto [35]. Samples were compared across treatment groups (DHQ vs DHQ+PTX) for the skin, liver, and intestines, as these tissues contained higher levels of PTX. Differences in gene expression levels were calculated using DESeq2 [36] [P<0.05 false discovery rate (Benjamini–Hochberg FDR), 4-fold change]. Contigs with significant expression differences were compared to the non-redundant (nr) database using BLAST with an E-value cutoff of 1e-5. […]
smiles,measurement,setting,value
"CCCCC(C)C=C1CN2CCCC2C(C)(O)C1 (stereo not shown) [PTX 251D, pumiliotoxin (PTX 251D)]",MHC Class Iα expression log2FC,intestines,5.41
same,MHC Class Iα expression log2FC,liver,3.49
same,vitellogenin 2 (VTG2) expression log2FC,liver,-7.73
same,solute carrier family 2 protein (SLC2) expression log2FC,"skin, stated downregulated",6.73

# From paper PMC8916643, “Molecular physiology of pumiliotoxin sequestration in a poison frog” (PLoS ONE, 2022)
